Results of unrelated studies side by side (data: NIAID ChemDB).

All rows: tests in culture; agent: Aspergillus niger; strain: MTCC 282; measure: MIC100

MIC50, MIC90 and the like: level of inhibition, or share of isolates inhibited.

| structure | value |
|---|---|
| Cn1c(=O)ccc2c3sc(N4CCN(c5ccccc5F)CC4)nc3ccc21 | 100 µg/mL |
| Cc1ccc(-c2nc3ccccc3c(=O)n2-c2ccc(C(=O)NN3C(=O)/C(=C/c4ccc(O)cc4)SC3c3ccc(F)cc3)cc2)cc1 | 250 µg/mL |
| Cn1c(=O)ccc2c3sc(N4CCN(Cc5ccccc5)CC4)nc3ccc21 | 500 µg/mL |
| Cc1ccc(-c2nc3ccccc3c(=O)n2-c2ccc(C(=O)NN3C(=O)/C(=C/c4ccc(Br)cc4)SC3c3ccc(F)cc3)cc2)cc1 | 1000 µg/mL |
| CC(=O)Nc1ccc(OCC(=O)N2N=C(c3nc4ccccc4[nH]3)CC2c2cccc(Br)c2)cc1 | 250 µg/mL |
| Cc1ccc(-c2n[nH]c(COc3nc(C(F)(F)F)nc4ccccc34)n2)cc1 | 12.5 µg/mL |
| CC(C)N1CCN(c2nc3ccc4oc(=O)ccc4c3s2)CC1 | 100 µg/mL |
| CC(=O)Nc1ccc(OCC(=O)N2N=C(c3nc4ccccc4[nH]3)CC2c2ccccc2O)cc1 | 500 µg/mL |
| Fc1ccc(-c2n[nH]c(COc3ncnc4ccccc34)n2)cc1 | 12.5 µg/mL |
| O=c1ccc2c(ccc3nc(N4CCN(c5ncccn5)CC4)sc32)o1 | 100 µg/mL |
| FC(F)(F)c1nc(OCc2nc(-c3cccs3)n[nH]2)c2ccccc2n1 | 6.25 µg/mL |
| Cc1ccc(-c2nc3ccccc3c(=O)n2-c2ccc(C(=O)NN3C(=O)/C(=C/c4cccc([N+](=O)[O-])c4)SC3c3ccc(F)cc3)cc2)cc1 | 50 µg/mL |
| CC(=O)Nc1ccc(OCC(=O)N2N=C(c3nc4ccccc4[nH]3)CC2c2ccccc2F)cc1 | 50 µg/mL |
| Cc1ccc(-c2nc3ccccc3c(=O)n2-c2ccc(C(=O)N/N=C\c3ccc(F)cc3)cc2)cc1 | 500 µg/mL |
| Cn1c(=O)ccc2c3sc(N4CCN(c5ccccc5Cl)CC4)nc3ccc21 | 100 µg/mL |
| CC(=O)Nc1ccc(OCC(=O)N2N=C(c3nc4ccccc4[nH]3)CC2c2ccc([N+](=O)[O-])cc2)cc1 | 25 µg/mL |
| Cc1ccc(-c2nc3ccccc3c(=O)n2-c2ccc(C(=O)NN3C(=O)/C(=C/c4ccccc4Cl)SC3c3ccc(F)cc3)cc2)cc1 | 100 µg/mL |
| CC1CC(C)CN(c2nc3ccc4oc(=O)ccc4c3s2)C1 | 62.5 µg/mL |
| CC(=O)Nc1ccc(OCC(=O)N2N=C(c3nc4ccccc4[nH]3)CC2c2ccc(F)cc2)cc1 | 25 µg/mL |
| FC(F)(F)c1nc(OCc2nc(-c3ccccc3)n[nH]2)c2ccccc2n1 | 25 µg/mL |
| CN1CCN(c2nc3ccc4c(ccc(=O)n4C)c3s2)CC1 | 250 µg/mL |

A second listing of 2 rows from above:

structure	value
Cn1c(=O)ccc2c3sc(N4CCN(c5ccccc5F)CC4)nc3ccc21	100 µg/mL
Cc1ccc(-c2nc3ccccc3c(=O)n2-c2ccc(C(=O)NN3C(=O)/C(=C/c4ccc(O)cc4)SC3c3ccc(F)cc3)cc2)cc1	250 µg/mL

Lines come from different laboratories, so protocols vary.